Compound potency records, mixed from different reports. Data source: NIAID ChemDB in PubChem.

Shared fields: growth or infection tests; organism: HIV-1

ECn is the concentration giving n% inhibition of infection, replication or growth. Conditions beyond the fields shown may differ between rows. Blank or dashed fields: not listed here.

compound	measure	mutations	cell line	read by	strain	result
CCCc1cc(=O)oc2c3c(c4c(c12)OC(C)(C)C=C4)O[C@H](CC)[C@H](C)[C@H]3O	EC50		CEM + CEM-SS	cytopathic effect / MTT	IIIB	>11.6 µM
CC(C)[C@H](NC(=O)OCc1cccnc1)C(=O)N[C@@H](Cc1ccccc1)[C@@H](O)[C@H](O)[C@H](Cc1ccccc1)NC(=O)[C@@H](NC(=O)OCc1cccnc1)C(C)C	EC50		PBLC	p24	D34	0.253 µM
Cc1cn([C@@H]2C[C@H](CO)[C@H](O)C2)c(=O)[nH]c1=O	EC50		CEM + CEM/0			>250 µM
CC(C)(c1cc2cnccc2o1)N1CCN(C[C@@H](O)C[C@@H](Cc2ccccc2)C(=O)N[C@H]2c3ccccc3OC[C@H]2O)[C@H](C(=O)NCC(F)(F)C(F)(F)F)C1	EC50		MT-4	p24	NL4-3	<0.008 µM
O=C(N[C@H]1c2ccccc2C[C@H]1O)[C@H](OCc1ccccc1)[C@H](O)[C@@H](O)[C@@H](OCc1ccccc1)C(=O)N[C@H]1c2ccccc2C[C@H]1O	EC50					0.092 µM
S=C(S)N1CCOCC1	EC50		CEM	cytopathic effect / XTT		16 µM
CC(C)=CCN1Cc2cc(Cl)cc3[nH]c(=S)n(c23)C[C@@H]1C	EC50	RT-D67N K70R T215Y K219Q Y181C	MT-4			<3 µM
Cn1cc(C(=O)N[C@@H](CC(N)=O)C(=O)N[C@@H](Cc2ccccc2)[C@H](O)C(=O)N2C[C@@H](Cl)C[C@H]2C(=O)NC(C)(C)C)c2ccccc21	EC90		MOLT-4/HIV-1(IIIB) + MOLT-4	p24	IIIB	2.1 µM
CC(C)[C@H](NC(=O)N(C)Cc1ccccn1)C(=O)N[C@@H](Cc1ccccc1)[C@@H](O)[C@H](O)[C@H](Cc1ccccc1)NC(=O)[C@@H](NC(=O)N(C)Cc1ccccn1)C(C)C	EC50		PBLC	p24	D34	0.958 µM
COC(=O)[C@H](C)NP(=O)(OC[C@H]1O[C@@H](N2C(=O)NC(=O)C(C)(Br)C2OC)C[C@@H]1N=[N+]=[N-])Oc1ccc(Br)cc1	EC50		PBMC	p24		0.005 µM
Nc1ncn([C@@H]2O[C@H](CO)[C@@H](O)[C@H]2O)c(=O)n1	EC50		CEM-GFP	flow cytometry	NL4-3	112 µM
Cn1ncc2c1S(=O)(=O)N(Cc1cccc(Cl)c1)C(=O)N2Cc1ccc(Cl)cc1	EC50		MT-4	cytopathic effect / MTT	IIIB	>277.2 µM
Nc1ccn([C@H]2CC[C@@H](CO)O2)c(=O)n1	EC50		MT-2	cytopathic effect / MTT	G910-6 AZT-resistant	~0.2 µM
COc1ccc2c(c1)CCCN2CCC(=O)N1CCN(c2ccc(F)cc2)CC1	EC50		C8166	syncytia / visual reading	IIIB	19.43 µg/mL
CNC(=O)[C@@H](NC(=O)[C@H](OCc1ccc(/C=C/C(=O)OC)cc1)[C@H](O)[C@@H](O)[C@@H](OCc1ccc(/C=C/C(=O)OC)cc1)C(=O)N[C@H](C(=O)NC)C(C)C)C(C)C	EC50		MT-4	cytopathic effect / XTT		0.3 µM
Cc1cccc(NC(=O)c2ccccc2SSc2ccccc2C(=O)Nc2cccc(C)c2)c1	EC50		CEM	cytopathic effect / XTT		20 µM
CC(C)[C@H](NC(=O)[C@H](Cc1cccc2ccccc12)CS(=O)(=O)C(C)(C)C)C(=O)NC[C@@H](O)[C@H](O)CNC(=O)[C@@H](NC(=O)[C@H](Cc1cccc2ccccc12)CS(=O)(=O)C(C)(C)C)C(C)C	EC50		PBLC	p24	D34	10 µM
CCOCn1c(Sc2ccccc2)c(CC)c(=O)[nH]c1=O	EC50		MT-4	cytopathic effect / MTT	A012D	0.015 µM
CC(C)(C)NC(=O)[C@@H]1CCCN1C(=O)[C@@H](O)[C@H](Cc1ccccc1)NC(=O)[C@H](CC(N)=O)NC(=O)c1cnc2ccccc2n1	EC50		MOLT-4/HIV-1(IIIB) + MOLT-4	p24	IIIB	<1 µM
CC(C)(C)NC(=O)[C@@H]1C[C@@H]2CCCC[C@@H]2CN1C[C@@H](O)[C@H](Cc1ccccc1)NC(=O)[C@H](CC(N)=O)NC(=O)c1ccc2ccccc2n1	EC50		MT-2	p24	LAI	0.021 µM
O=C(N[C@H]1c2ccccc2C[C@H]1O)[C@@H](C[C@@H](O)[C@@H](OCc1ccccc1)C(=O)N[C@H]1c2ccccc2C[C@H]1O)OCc1ccccc1	EC50		MT-4	cytopathic effect / XTT		1.4 µM
Cc1cn([C@H]2C[C@H](N=[N+]=[N-])[C@@H](CO)O2)c(=O)[nH]c1=O	EC50		C8166	p24	IIIB	0.1 µg/mL
Cc1cc(S(N)(=O)=O)ccc1NC(=O)COc1ccc(Cl)cc1C(O)c1cccc(C)c1C	EC50		C8166			227.5 µM
Cc1ccc2c(c1)C(=O)N1CSCC1C(=O)S2	EC50		CEM	cytopathic effect / XTT	RF	>35 µM
COc1ccc(S(=O)(=O)N(CC(C)C)C[C@@H](O)[C@H](Cc2ccccc2)NC(=O)O[C@H]2CCO[C@H]3OCC[C@H]32)cc1	EC50		MT-2	MTT	LAI	0.019 µM
O=C(NC1CCc2ccccc21)[C@H](OCc1cccc(F)c1)[C@H](O)[C@@H](O)[C@@H](OCc1cccc(F)c1)C(=O)N[C@H]1CCc2ccccc21	EC50		MT-4	cytopathic effect / XTT		0.5 µM
CC(C)(c1cc2cnccc2o1)N1CCN(C[C@@H](O)C[C@@H](Cc2ccccc2)C(=O)N[C@H]2c3ccccc3OC[C@H]2O)[C@H](C(=O)Nc2ccccc2)C1	EC50		MT-4	p24	NL4-3	<0.25 µM
Cc1cccc2c1OP(=O)(OC[C@@H]1[C@@H](O)CC[C@@H]1n1cc(C)c(=O)[nH]c1=O)OC2	EC50		CEM + CEM/0			27.5 µM
Cc1cn([C@H]2C=C[C@@H](CO)O2)c(=O)[nH]c1=O	EC50	RT-K65R	MT-2	p24	LAI	18.4 µM
CCCc1cc(=O)oc2c3c(c4c(c12)OC(C)(C)C=C4)O[C@H](CC)[C@@H](C)C3=O	EC50		CEM + CEM-SS	cytopathic effect / MTT	IIIB	>6.8 µM
Nc1nc(=O)n([C@@H]2CC[C@H](CO)O2)cc1F	EC50		U-937	RT activity	IIIB	0.001 µM
Cc1cn([C@H]2C[C@H](N=[N+]=[N-])[C@@H](CO)O2)c(=O)[nH]c1=O	EC50	RT-L74V	MT-2	p24	LAI	0.006 µM
COc1ccc2c(c1)CCCN2CCC(=O)N1CCN(c2ccccc2Cl)CC1	EC50		C8166	syncytia / visual reading	IIIB	11.04 µg/mL
COc1cc(NC(C)CCCN)c2ncccc2c1	EC50		MT-4	MTT	NL4-3	>100 µM
Cc1cn([C@@H]2C[C@@H](N=[N+]=[N-])[C@H](COP(=O)(O)OC3CCC4(C)C(CCC5C4CC(O)C4(C)C(C(C)CCC(=O)OC[C@@H]6CC[C@H](n7cnc8c(=O)[nH]cnc87)O6)CCC54)C3)O2)c(=O)[nH]c1=O	EC50		MT-4	cytopathic effect		0.005 µM
COC(=O)[C@H](C)NP(=O)(OC[C@@H]1CC[C@H](N2C(=O)NC(=O)C(C)(Br)C2OC)O1)Oc1ccc(Br)cc1	EC50		PBMC	p24		1.924 µM
Nc1ccn([C@H]2CC[C@@H](CO)O2)c(=O)n1	EC50		MT-4	cytopathic effect / trypan blue	IIIB	0.7 µg/mL
COc1ccc2c(c1)CCCN2CCC(=O)N1CCN(c2ccc(Cl)cc2)CC1	EC50		C8166	syncytia / visual reading	IIIB	16.43 µg/mL
CC(C)(C)NC(=O)[C@@H]1C[C@H](Cl)CN1C(=O)[C@@H](O)[C@H](Cc1ccccc1)NC(=O)[C@H](CC(N)=O)NC(=O)OCc1ccccc1	EC90		CEM	p24	IIIB	0.5 µM
O=C(Nc1cc(C(F)(F)F)cc(C(F)(F)F)c1)c1ccccc1SSc1ccccc1C(=O)Nc1cc(C(F)(F)F)cc(C(F)(F)F)c1	EC50		CEM	cytopathic effect / XTT		>3.6 µM
CC(C)(c1cc2cnccc2o1)N1CCN(C[C@@H](O)C[C@@H](Cc2ccccc2)C(=O)N[C@H]2c3ccccc3OC[C@H]2O)[C@H](C(=O)NC2CC2)C1	EC50		MT-4	p24	NL4-3	<0.062 µM
CC(C)Nc1cccnc1N1CCN(C(=O)c2cc3cc(NS(C)(=O)=O)ccc3[nH]2)CC1	EC50		CEM	syncytia	IIIB	0.009 µM
COC(=O)[C@H](C)NP(=O)(OC[C@H]1O[C@@H](N2C(=O)NC(=O)C(C)(Br)C2OC)C[C@@H]1N=[N+]=[N-])Oc1ccccc1	EC50		PBMC	p24		0.035 µM
CC[C@H](C)[C@H](NC(=O)c1ccccc1SSc1ccccc1C(=O)N[C@H](C(=O)O)[C@@H](C)CC)C(=O)O	EC50		CEM	cytopathic effect / XTT		5 µM
O=C(NC1c2ccccc2CC1O)[C@H](OCc1ccccc1)[C@H](O)[C@@H](O)[C@@H](OCc1ccccc1)C(=O)N[C@H]1c2ccccc2CC1O	EC50		MT-4	cytopathic effect / XTT		0.05 µM
Cn1ncc2c1S(=O)(=O)N(Cc1cccc(Cl)c1)C(=O)N2Cc1cccc(Cl)c1	EC50		MT-4	cytopathic effect / MTT	IIIB	>277.2 µM
COC1N([C@H]2C[C@H](N)[C@@H](CO)O2)C(=O)NC(=O)C1(C)Br	EC50		PBMC	p24		0.25 µM
CCCC[C@H](NC(=O)[C@@H](NC(=O)[C@H](Cc1cccc2ccccc12)CS(=O)(=O)C(C)(C)C)C(C)C)[C@@H](O)[C@H](O)[C@H](CCCC)NC(=O)[C@@H](NC(=O)[C@H](Cc1cccc2ccccc12)CS(=O)(=O)C(C)(C)C)C(C)C	EC50		PBLC	p24	D34	0.075 µM
C1CNCCNCCCNCCNC1.[Cl-].[O]=[V+2]	EC50		MT-4	MTT	IIIB	>360 µM
Cc1cccc2c1OP(=O)(OC[C@H]1C[C@@H](n3cc(C)c(=O)[nH]c3=O)C[C@@H]1O)OC2	EC50		CEM + CEM/0			0.65 µM
Nc1nc2c(ncn2[C@H]2CO[C@@H](CO)O2)c(=O)[nH]1	EC50	RT-K65R	MT-2	p24	LAI	2.41 µM
Cn1ncc2c1S(=O)(=O)N(Cc1cccc(Cl)c1)C(=O)N2Cc1ccccc1F	EC50		MT-4	cytopathic effect / MTT	IIIB	>278.5 µM
O=C(O)c1ccccc1SSc1ccccc1C(=O)O	EC50		CEM	cytopathic effect / XTT		>100 µM
COc1ccc2c(c1)CCCN2CCC(=O)N1CCN(c2ccccc2OC)CC1	EC50		C8166	syncytia / visual reading	IIIB	13.21 µg/mL
CCN(CC)c1ccc(NC(=O)c2ccccc2SSc2ccccc2C(=O)Nc2ccc(N(CC)CC)cc2)cc1	EC50		CEM	cytopathic effect / XTT		10 µM
CC(C)(c1cc2cnccc2o1)N1CCN(C[C@@H](O)C[C@@H](Cc2ccccc2)C(=O)N[C@H]2c3ccccc3OC[C@H]2O)[C@H](C(=O)NCc2ccccc2)C1	EC95		MT-4	p24	NL4-3	0.125 µM
O=C(NC1c2ccccc2C[C@H]1O)[C@H](OCc1ccccc1)[C@H](O)[C@@H](O)[C@@H](OCc1ccccc1)C(=O)NC1c2ccccc2C[C@H]1O	EC50		MT-4	cytopathic effect / XTT		0.11 µM
CSc1c(C)c(SC)n2ccncc12	EC50		H9	MTT / p24	IIIB	~25 µM
CC(C)CNC(=O)[C@@H]1CN(C(C)(C)c2cc3cnccc3o2)CCN1C[C@@H](O)C[C@@H](Cc1ccccc1)C(=O)N[C@H]1c2ccccc2OC[C@H]1O	EC50		MT-4	p24	NL4-3	<0.015 µM
Cc1cn([C@H]2C[C@H](N)[C@@H](CO)O2)c(=O)[nH]c1=O	EC50		PBMC	p24		0.35 µM
CC(C)(C)NC(=O)[C@@H]1C[C@H](Cl)CN1C(=O)[C@@H](O)[C@H](Cc1ccccc1)NC(=O)[C@H](CC(N)=O)NC(=O)c1noc2ccccc12	EC90		CEM	p24	IIIB	0.16 µM
CNC(=O)[C@@H](NC(=O)[C@H](OCc1ccc(C2=C(O)C(=O)CCC2)cc1)[C@H](O)[C@@H](O)[C@@H](OCc1ccc(C2=C(O)C(=O)CCC2)cc1)C(=O)N[C@H](C(=O)NC)C(C)C)C(C)C	EC50		MT-4	cytopathic effect / XTT		0.2 µM
CC(C)=CCOc1cc(NC(=S)c2ccoc2C)ccc1Cl	EC50		CEM	syncytia	IIIB	0.005 µM
Cc1cn([C@H]2C[C@H](N=[N+]=[N-])[C@@H](COC(=O)C(=O)O)O2)c(=O)[nH]c1=O	EC50		PBMC			0.025 µg/mL
CC(=O)c1ccc(C)cc1NC(C(N)=O)c1c(Cl)cccc1Cl	EC50		CEM	syncytia	IIIB	0.01 µM
COC(=O)[C@H](C)NP(=O)(OC[C@H]1O[C@@H](n2cc(C)c(=O)[nH]c2=O)C[C@@H]1N=[N+]=[N-])Oc1ccc(F)cc1	EC50		PBMC	p24		0.029 µM

For reference, 4 entries again:

compound,measure,mutations,cell line,read by,strain,result
CC(C)=CCN1Cc2cc(Cl)cc3[nH]c(=S)n(c23)C[C@@H]1C,EC50,RT-D67N K70R T215Y K219Q Y181C,MT-4,,,<3 µM
CC(C)[C@H](NC(=O)OCc1cccnc1)C(=O)N[C@@H](Cc1ccccc1)[C@@H](O)[C@H](O)[C@H](Cc1ccccc1)NC(=O)[C@@H](NC(=O)OCc1cccnc1)C(C)C,EC50,,PBLC,p24,D34,0.253 µM
Cc1cn([C@H]2C=C[C@@H](CO)O2)c(=O)[nH]c1=O,EC50,RT-K65R,MT-2,p24,LAI,18.4 µM
CSc1c(C)c(SC)n2ccncc12,EC50,,H9,MTT / p24,IIIB,~25 µM